Test results reported in patent US20250304927A1, “PRO-PEPTIDE VARIANTS FOR MODULATING ACTIVITY OF TRANSGLUTAMINASES” (CURIE CO. INC., priority 2022, published 2025).

tested on: zymogen transglutaminase; test: zymogen transglutaminase yield by bicinchoninic acid assay; parameters: species or system Streptomyces mobaraensis; key: The symbol, —, represents not determined, neutral, or reduced performance; conditions: zymogen transglutaminase yield relative to wild-type pro-domain

Substance | Yield
D2I, E2S, D21T: combination variant of pro-peptide SEQ ID NO: 2, Method B; E2S probably E7S (MINGAGSETKSYAETYRLTATDVANINALNESAPAASSAGPSFRAP) | —
D2S, L18V, D22Q: combination variant of pro-peptide SEQ ID NO: 2, Method B (MSNGAGEETKSYAETYRVTADQVANINALNESAPAASSAGPSFRAP) | —
D2S, E7S, D22Q: combination variant of pro-peptide SEQ ID NO: 2, Method B (MSNGAGSETKSYAETYRLTADQVANINALNESAPAASSAGPSFRAP) | >1.2 fold
D2I, D21T, D22Q: combination variant of pro-peptide SEQ ID NO: 2, Method B (MINGAGEETKSYAETYRLTATQVANINALNESAPAASSAGPSFRAP) | —
E7S, L18V, D21R: combination variant of pro-peptide SEQ ID NO: 2, Method B (MDNGAGSETKSYAETYRVTARDVANINALNESAPAASSAGPSFRAP) | —
D2I, E7S, D21I: combination variant of pro-peptide SEQ ID NO: 2, Method B (MINGAGSETKSYAETYRLTAIDVANINALNESAPAASSAGPSFRAP) | —
D2S, D21T, D22Q: combination variant of pro-peptide SEQ ID NO: 2, Method B (MSNGAGEETKSYAETYRLTATQVANINALNESAPAASSAGPSFRAP) | —
E7S, L18V, D21I: combination variant of pro-peptide SEQ ID NO: 2, Method B (MDNGAGSETKSYAETYRVTAIDVANINALNESAPAASSAGPSFRAP) | —
L18V, D21T: combination variant of pro-peptide SEQ ID NO: 2, Method B (MDNGAGEETKSYAETYRVTATDVANINALNESAPAASSAGPSFRAP) | —
D2I, E7S, D22Q: combination variant of pro-peptide SEQ ID NO: 2, Method B (MINGAGSETKSYAETYRLTADQVANINALNESAPAASSAGPSFRAP) | —
D2I, E7S, L18V, D21R: combination variant of pro-peptide SEQ ID NO: 2, Method B (MINGAGSETKSYAETYRVTARDVANINALNESAPAASSAGPSFRAP) | —
D2S, E7S, D21I: combination variant of pro-peptide SEQ ID NO: 2, Method B (MSNGAGSETKSYAETYRLTAIDVANINALNESAPAASSAGPSFRAP) | —
D2S, D22Q: combination variant of pro-peptide SEQ ID NO: 2, Method B (MSNGAGEETKSYAETYRLTADQVANINALNESAPAASSAGPSFRAP) | —
D2S, E7S: combination variant of pro-peptide SEQ ID NO: 2, Method B (MSNGAGSETKSYAETYRLTADDVANINALNESAPAASSAGPSFRAP) | —
E7S, D21R: combination variant of pro-peptide SEQ ID NO: 2, Method B (MDNGAGSETKSYAETYRLTARDVANINALNESAPAASSAGPSFRAP) | —
D2S, E7S, D21T, D22Q: combination variant of pro-peptide SEQ ID NO: 2, Method B (MSNGAGSETKSYAETYRLTATQVANINALNESAPAASSAGPSFRAP) | —
E7S, D21T, D22Q: combination variant of pro-peptide SEQ ID NO: 2, Method B (MDNGAGSETKSYAETYRLTATQVANINALNESAPAASSAGPSFRAP) | —
L18V, D21T, D22Q: combination variant of pro-peptide SEQ ID NO: 2, Method B (MDNGAGEETKSYAETYRVTATQVANINALNESAPAASSAGPSFRAP) | —
